From paper PMC5595889, “Synergy of two low-affinity NLSs determines the high avidity of influenza A virus nucleoprotein NP for human importin α isoforms” (2017) come the findings set out here.

Common to all, as to assay: pull-down
Assay [1] concerns the target GST-tagged importin α7 lacking the IBB. Conditions: GST-importin α isoforms (1 μM), influenza NP (0.75 µM), 4 °C; parent: est. 0.95; read off a plot.
Assay [2] deals with GST-tagged importin α3 lacking the IBB. Conditions: GST-importin α isoforms (1 μM), influenza NP (0.75 µM), 4 °C; parent: est. 0.73; read off a plot.
Assay [3] has as its target GST-tagged importin α1 lacking the IBB. Conditions: GST-importin α isoforms (1 μM), influenza NP (0.75 µM), 4 °C; parent: est. 0.50; read off a plot.
Assay [4] concerns the target GST-tagged importin α5 lacking the IBB. The note with it: GST-importin α isoforms (1 μM), influenza NP (0.75 µM), 4 °C; parent: est. 0.86; read off a plot.

Regarding “influenza A virus (H1N1 strain A/WSN/33) monomeric nucleoprotein (from UniProt P15682) K7A; R8A”, the response in assay [1] came to 0.012 pixel ratio; in assay [2], 0.01 pixel ratio; in assay [3] it was 0.033 pixel ratio; in assay [4], 0.01 pixel ratio.
Consider “influenza A virus (H1N1 strain A/WSN/33) monomeric nucleoprotein (from UniProt P15682) K7A; R8A; R213A; R214A”, for which the response in assay [1] was 0.012 pixel ratio; in assay [2], 0.01 pixel ratio; in assay [3], 0.02 pixel ratio; in assay [4], 0.005 pixel ratio.
In the case of “influenza A virus (H1N1 strain A/WSN/33) monomeric nucleoprotein (from UniProt P15682) R213A; R214A”, the values for the response in assay [2] and in assay [4] were 0.59 pixel ratio and 0.69 pixel ratio, respectively.
